Our source for the Kd values is article PMC4624681, “TIM-1 acts a dual-attachment receptor for Ebolavirus by interacting directly with viral GP and the PS on the viral envelope” (Protein & Cell, 2015).

This experiment has as its target Bundibugyo GP (1–308) with a Fc tag (Ebolavirus, Bundibugyo strain, UniProt B8XCN0).

B1: Ig V domain of human T-cell immunoglobulin and mucin domain protein 1 (hTIM-1) (domain or fragment)
chain: VKVGGEAGPSVTLPCHYSGAVTSMCWNRGSCSLFTCQNGIVWTNGTHVTYRKDTRYKLLGDLSRRDVSLTIENTAVSDSGVYCCRVEHRGWFNDMKITVSLEIVPP
With B1, the Kd – broadly, the equilibrium constant for the complex coming apart – was roughly 4.9 µM.
